# How the values were obtained:
# IIIB (HIV IIIB virus) = test: Study 4 sensitization, Turpin and standard macrophages: RT activity after IIIB challenge; assay type: cell-based; conditions: IIIB Sensitized, Turpin
# Protocol: (§1) Percent virus control (% VC) in the following tables is the mean RT activity (cpm) as a percentage of a virus control. Percent cell control (% CC) is the mean XTT absorbance as a percentage of a cell control.
# (§2) Reverse transcriptase (RT) activity was measured in cell-free supernatants. Tritiated thymidine triphosphate (NEN) (TTP) was resuspended in distilled H2O at […]. Poly rA and oligo dT were prepared as a stock solution which was kept at −20° C. The RT reaction buffer was prepared fresh on a daily basis and consists of 125 μL 1.0 M EGTA, 125 μL d H2O, 110 μL 10% SDS, 50 μL 1.0 M Tris (pH 7.4), 50 μL 1.0 M DTT, and 40μ1.0 M MgCl2. These three solutions were mixed together in a ratio of 2 parts TTP, 1 part poly rA:oligo dT, and 1 part reaction buffer. Ten microliters of this reaction mixture was placed in a round bottom microtiter plate and 15 μL of virus containing supernatant was added and mixed. […] Opti-Fluor O was added to each sample and incorporated radioactivity was quantitated utilizing a Wallace 1450 Microbetaplus liquid scintillation counter. […]
# Where viability corrections were conducted, they were performed by dividing the RT CPM value by the toxicity absorbance in order to compensate for well to well variations noted in the cell titer toxicity noted.
# PBMCs [1] = test: Study 2 hyaluronidase chronic overlay testing: cell viability (XTT); assay type: cell-based, human
# Protocol: as §1
# Assay method. Seven day old Rojo chronically infected (and uninfected control) PBMCs are pre-treated with two fold dilutions of HLDA-1 for 48 hours. Treated cells are 2× washed with PBS and overlayed onto seven day old macrophages for 72 hours at which time the PBMCs were washed off and replaced with fresh uninfected pha blast PBMCs in the presence of IL-1 (5.0 ng/mL) and IL-2 (20U/mL). Overlayed cells are incubated for 48 hours 50% of cells transferred to a fresh 96 well plate, and then both the original and transfer plate infected with ROJO at a standard MOI. Samples for reverse transcriptase and toxicity testing were processed on day 7 post secondary infection.
# ROJO (low passage HIV-1) [2] = test: Study 4 sensitization, Turpin and standard macrophages: RT activity after Rojo challenge; assay type: cell-based; conditions: Rojo Sensitized
# Protocol: as §1
# (§3) In the following set of experiments, virus {IIIB(Dec. 1, 2000-4 uL/well), GP120 IIIB (0.5 u g/mL) and Rojo(Oct. 23, 2000-1.25 uL/well)} was treated overnight in 2 fold dilutions of the compound Hyaluronidase and then transferred to two types of macrophage (Turpin and Standard methodology) 96 well plates for 24 hours. (Turpin methodology differs from standard methodology in that it utilizes purer, more sensitive macrophages having a higher percentage of monocytes and macrophages). The macrophage plates were then washed with HBSS multiple times. Fresh mixed pha blast PBMCs (5×10e4/well) were placed on the macrophage cells, allowed to incubate for 72 hours and then harvested and reset in a fresh 96 well plate. The PBMCs were then challenged overnight with the respective virus (IIIB or Rojo) at a standard MOI for that virus. The PBMCs were 5× in plate spin washed with DPBS, incubated 24 hours, at which time 5×10e4 fresh pha blast PBMCs/well were added. The culture was incubated an additional 6 days and then assayed for RT activity.
# (§4) Where viability corrections were conducted, they were performed by dividing the RT CPM value by the toxicity absorbance in order to compensate for well to well variations noted in the cell titer toxicity noted. Variance is believed to be due to well to well harvest inconsistencies when removing the PBMCs from the macrophage plates.
# ROJO (low passage HIV-1) [3] = test: Study 2 hyaluronidase chronic overlay testing: RT activity after secondary ROJO infection; assay type: cell-based; conditions: Table 5; 2.5 units/mL; control uninfected PBMCs; Macrophage + PBMCs
# Source text: as §1
# Method A. Peripheral blood monocytes were isolated from normal HIV-1 negative donors by plastic adherence following ficall hypaque purification of the buffy coat PBMCs. For isolation of adherent cells, 3×10^6/ml non-PHA stimulated peripheral blood cells were resuspended in Hanks buffered saline (with calcium and magnesium) supplemented with 10% human AB serum, and 200 μl per well placed in a 96 well lat bottomed microtiter plate. The cells were incubated overnight at 37° C., 5% CO2. Non-adherent cells were removed by washing six time with a Ca^++, Mg^++ containing medium. The adherent cells after the final wash were supplemented with RPMI 1640 supplemented with 15% fetal bovine serum (heat inactivated), 2 mM L-glutamine, 100 U/mL penicillin, 100 μg/mL streptomycin and 10 μg/mL gentamycin, and cultured for 7 days. […] The cultures are carefully monitored for confluency prior to assay.
# Reverse transcriptase (RT) activity was measured in cell-free supernatants. […] Opti-Fluor O was added to each sample and incorporated radioactivity was quantitated utilizing a Wallace 1450 Microbetaplus liquid scintillation counter. […]
# PBMCs [4] = test: Study 4 sensitization: cell viability; assay type: cell-based, human
# Protocol: as §1, §3, §4
# Rojo virus = test: Study 3 hyaluronidase sensitization assay: RT activity after Rojo challenge of naive PBMCs; assay type: cell-based, HIV-1; conditions: 0.78 μg/mL; 50 μL Rojo; Without PHA/IL2
# Protocol: as §1
# as §2, with “mixed. The plate was incubated at 37° C. in a water bath with a solid support to prevent submersion of the plate and incubated for 60 minutes.” for “mixed.”
substance,measurement,setting,value
Hyaluronidase,RT activity % VC,IIIB (HIV IIIB virus); 0.390625 μg/mL,84.5%
same,RT activity % VC,IIIB (HIV IIIB virus); 3.125 μg/mL,86.5%
same,cell viability % CC,"PBMCs [1]; Table 4, 5 units/mL, Rojo chronic PBMCs, Macrophage + PBMCs",115.5%
same,cell viability % CC,"PBMCs [1]; Table 4, 7.5 units/mL, Rojo chronic PBMCs, Transfer PBMCs",111.9%
same,cell viability % CC,"PBMCs [1]; Table 4, 15 units/mL, Rojo chronic PBMCs, Macrophage + PBMCs",107.4%
same,cell viability % CC,"PBMCs [1]; Table 4, 15 units/mL, Rojo chronic PBMCs, Transfer PBMCs",104.9%
same,cell viability % CC,"PBMCs [1]; Table 4, 20 units/mL, Rojo chronic PBMCs, Transfer PBMCs",97.3%
same,cell viability % CC,"PBMCs [1]; Table 4, 20 units/mL, control uninfected PBMCs, Transfer PBMCs",111.1%
same,cell viability % CC,"PBMCs [1]; Table 5, 2.5 units/mL, control uninfected PBMCs, Macrophage + PBMCs",85.6%
same,cell viability % CC,"PBMCs [1]; Table 5, 3.75 units/mL, Rojo chronic PBMCs, Macrophage + PBMCs",120.6%
same,cell viability % CC,"PBMCs [1]; Table 5, 5 units/mL, Rojo chronic PBMCs, Transfer PBMCs",110.2%
same,RT activity % VC,"ROJO (low passage HIV-1) [2]; 0.097656 μg/mL, Standard",82.2%
same,RT activity % VC,"ROJO (low passage HIV-1) [2]; 0.195313 μg/mL, Standard",91.8%
same,RT activity % VC,"ROJO (low passage HIV-1) [2]; 0.195313 μg/mL, Turpin",82.9%
same,RT activity % VC,"ROJO (low passage HIV-1) [2]; viability corrected, 0.195313 μg/mL, Standard",82.5%
same,RT activity % VC,"ROJO (low passage HIV-1) [2]; viability corrected, 0.390625 μg/mL, Turpin",85.0%
same,RT activity % VC,ROJO (low passage HIV-1) [3],91.6%
same,cell viability % CC,"PBMCs [4]; 0.097656 μg/mL, IIIB Sensitized, Turpin",102.4%
same,cell viability % CC,"PBMCs [4]; 0.097656 μg/mL, Rojo Sensitized, Standard",124.4%
same,cell viability % CC,"PBMCs [4]; 0.097656 μg/mL, Rojo Sensitized, Turpin",92.3%
same,cell viability % CC,"PBMCs [4]; 0.195313 μg/mL, GP120IIIB Sensitized, Standard",122.8%
same,cell viability % CC,"PBMCs [4]; 0.195313 μg/mL, GP120IIIB Sensitized, Turpin",98.4%
same,cell viability % CC,"PBMCs [4]; 0.195313 μg/mL, IIIB Sensitized, Standard",124.7%
same,cell viability % CC,"PBMCs [4]; 0.195313 μg/mL, IIIB Sensitized, Turpin",86.5%
same,cell viability % CC,"PBMCs [4]; 0.195313 μg/mL, Rojo Sensitized, Turpin",98.6%
same,cell viability % CC,"PBMCs [4]; 0.390625 μg/mL, GP120IIIB Sensitized, Standard",120.0%
same,cell viability % CC,"PBMCs [4]; 0.390625 μg/mL, IIIB Sensitized, Turpin",84.8%
same,cell viability % CC,"PBMCs [4]; 0.390625 μg/mL, Rojo Sensitized, Standard",98.6%
same,cell viability % CC,"PBMCs [4]; 0.390625 μg/mL, Rojo Sensitized, Turpin",81.3%
same,cell viability % CC,"PBMCs [4]; 0.78125 μg/mL, GP120IIIB Sensitized, Standard",95.0%
same,cell viability % CC,"PBMCs [4]; 0.78125 μg/mL, GP120IIIB Sensitized, Turpin",90.8%
same,cell viability % CC,"PBMCs [4]; 0.78125 μg/mL, IIIB Sensitized, Standard",110.7%
same,cell viability % CC,"PBMCs [4]; 0.78125 μg/mL, IIIB Sensitized, Turpin",109.1%
same,cell viability % CC,"PBMCs [4]; 0.78125 μg/mL, Rojo Sensitized, Turpin",86.3%
same,cell viability % CC,"PBMCs [4]; 1.5625 μg/mL, GP120IIIB Sensitized, Standard",104.2%
same,cell viability % CC,"PBMCs [4]; 1.5625 μg/mL, IIIB Sensitized, Standard",106.6%
same,cell viability % CC,"PBMCs [4]; 1.5625 μg/mL, IIIB Sensitized, Turpin",90.2%
same,cell viability % CC,"PBMCs [4]; 1.5625 μg/mL, Rojo Sensitized, Standard",110.1%
same,cell viability % CC,"PBMCs [4]; 1.5625 μg/mL, Rojo Sensitized, Turpin",88.7%
same,cell viability % CC,"PBMCs [4]; 3.125 μg/mL, GP120IIIB Sensitized, Standard",109.2%
same,cell viability % CC,"PBMCs [4]; 3.125 μg/mL, GP120IIIB Sensitized, Turpin",87.4%
same,cell viability % CC,"PBMCs [4]; 3.125 μg/mL, IIIB Sensitized, Turpin",80.3%
same,cell viability % CC,"PBMCs [4]; 3.125 μg/mL, Rojo Sensitized, Standard",103.8%
same,cell viability % CC,"PBMCs [4]; 3.125 μg/mL, Rojo Sensitized, Turpin",82.3%
same,cell viability % CC,"PBMCs [4]; 6.25 μg/mL, GP120IIIB Sensitized, Standard",115.1%
same,cell viability % CC,"PBMCs [4]; 6.25 μg/mL, Rojo Sensitized, Standard",102.8%
same,cell viability % CC,"PBMCs [4]; 6.25 μg/mL, Rojo Sensitized, Turpin",81.0%
same,cell viability % CC,"PBMCs [4]; 12.5 μg/mL, GP120IIIB Sensitized, Standard",123.1%
same,cell viability % CC,"PBMCs [4]; 12.5 μg/mL, IIIB Sensitized, Standard",101.5%
same,cell viability % CC,"PBMCs [4]; 12.5 μg/mL, IIIB Sensitized, Turpin",128.5%
same,cell viability % CC,"PBMCs [4]; 12.5 μg/mL, Rojo Sensitized, Standard",103.1%
same,cell viability % CC,"PBMCs [4]; 12.5 μg/mL, Rojo Sensitized, Turpin",81.8%
same,cell viability % CC,"PBMCs [4]; 25 μg/mL, GP120IIIB Sensitized, Standard",87.1%
same,cell viability % CC,"PBMCs [4]; 25 μg/mL, GP120IIIB Sensitized, Turpin",91.4%
same,cell viability % CC,"PBMCs [4]; 25 μg/mL, IIIB Sensitized, Standard",82.1%
same,cell viability % CC,"PBMCs [4]; 25 μg/mL, IIIB Sensitized, Turpin",91.6%
same,cell viability % CC,"PBMCs [4]; 25 μg/mL, Rojo Sensitized, Standard",92.9%
same,RT activity % VC,Rojo virus,111.9%
